Experimental data as given in patent US12595505B2, “Compositions and methods for cellular phenotype assessment of a sample using confined volume arrays” (PATTERN BIOSCIENCE, INC., priority 2018, dated 2026).

System: S. aureus, E. faecium, K. pneumoniae, E. coli, P. aeruginosa isolates
Assay: Droplet-array antibiotic susceptibility testing (AST), categorical agreement against broth microdilution, by antibiotic over all pathogens
Type: cell-based
Design: key to Error Type: VME—very major error; R called S; ME—major error, S called R
Conditions: for CA (Categorical Agreement): all pathogens pooled, susceptible/resistant call vs broth microdilution reference (CLSI), imaged over 4 hours; for Error Type: discordant calls vs broth microdilution reference

Gentamicin
CA (Categorical Agreement): 100.0%

CO/N=C(\C(=O)N[C@@H]1C(=O)N2C(C(=O)O)=C(CSc3nc(=O)c(=O)[nH]n3C)CS[C@H]12)c1csc(N)n1 [Ceftriaxone]
CA (Categorical Agreement): 95.7%
Error Type: ME

NCC[C@H](O)C(=O)N[C@@H]1C[C@H](N)[C@@H](O[C@H]2O[C@H](CN)[C@@H](O)[C@H](O)[C@H]2O)[C@H](O)[C@H]1O[C@H]1O[C@H](CO)[C@@H](O)[C@H](N)[C@H]1O [Amikacin]
CA (Categorical Agreement): 100.0%

CO[C@@]1(NC(=O)Cc2cccs2)C(=O)N2C(C(=O)O)=C(COC(N)=O)CS[C@@H]21 [Cefoxitin]
CA (Categorical Agreement): 100.0%

CC[C@H]1OC(=O)[C@H](C)[C@@H](O[C@H]2C[C@@](C)(OC)[C@@H](O)[C@H](C)O2)[C@H](C)[C@@H](O[C@@H]2O[C@H](C)C[C@H](N(C)C)[C@H]2O)[C@](C)(O)C[C@@H](C)C(=O)[C@H](C)[C@@H](O)[C@]1(C)O [Erythromycin]
CA (Categorical Agreement): 100.0%

C[C@@H](O)[C@H]1C(=O)N2C(C(=O)O)=C(S[C@@H]3CN[C@H](C(=O)N(C)C)C3)[C@H](C)[C@H]12 [Meropenem]
CA (Categorical Agreement): 100.0%

CN[C@H](CC(C)C)C(=O)N[C@H]1C(=O)N[C@@H](CC(N)=O)C(=O)N[C@H]2C(=O)N[C@H]3C(=O)N[C@H](C(=O)N[C@H](C(=O)O)c4cc(O)cc(O)c4-c4cc3ccc4O)[C@H](O)c3ccc(c(Cl)c3)Oc3cc2cc(c3O[C@@H]2O[C@H](CO)[C@@H](O)[C@H](O)[C@H]2O[C@H]2C[C@](C)(N)[C@H](O)[C@H](C)O2)Oc2ccc(cc2Cl)[C@H]1O [Vancomycin]
CA (Categorical Agreement): 96.0%
Error Type: ME

NC[C@H]1O[C@H](O[C@H]2[C@H](O)[C@@H](O[C@H]3O[C@H](CO)[C@@H](O)[C@H](N)[C@H]3O)[C@H](N)C[C@@H]2N)[C@H](N)C[C@@H]1O [Tobramycin]
CA (Categorical Agreement): 100.0%
